Results as given in paper PMC12360793.

Biological target: biotinylated monomeric MOW15–22 RBD (MOW15–22 (bat MERSr-CoV sampled in Pipistrellus nathusii))
Test: BLI
Settings: domain or fragment

monomeric P.nat ACE2 ectodomain (residues 17–614, avi-His8)
koff: 0.0129 s⁻¹
